The test system of the assay is human bone marrow stromal cells. Put plainly: G-CSF supernatant levels in human bone marrow stromal cell cultures. The following applies: 1 to 10^4 nM, 24 hours in vitro. It counts as cell-based. As for the experimental part:
Human bone marrow stromal cell cultures. Samples of normal human bone marrow were purchased from Cambrex Bioproducts (Walkersville, Md.) and mononuclear cells were purified over Ficoll-Hypaque (Nycomed, Oslo, Norway). Human stromal layers were established by seeding 4×10^7 mononuclear cells into T75 flasks (Coming) containing 20 ml MyeloCult medium (Stem Cell Technologies, Vancouver, BC) supplemented with 10^−6 M hydrocortisone (Sigma) and incubation at 37° C. in 100% humidified 5% CO2 in air. After one week, half the medium was exchanged, and the cultures incubated for approximately one week more, after which time, a semi-confluent cell layer was formed. Stromal cells were harvested by trypsinization using standard technique and 10^5 cells/well were seeded in multi-well plates in 1 ml of fully supplemented DMEM (InVitrogen, Carlsbad, Calif.). […] Multiwell cultures without the addition of amino boronic dipeptides served as controls. […] Supernatant concentrations of human G-CSF were determined by Quantikine enzyme-linked immunosorbent assay (ELISA; R&D Systems, Minneapolis, Minn.) according to the manufacturer's instructions. […] The effect of each amino boronic dipeptide on the level of supernatant G-CSF was determined by calculating a stimulation index (SI): SI=(mean G-CSF concentration in culture with amino boronic dipeptide)/(mean G-CSF concentration in control culture).

This note sets out measurements from US20070072830A1, “Methods for treating diabetes” (Point Therapeutics, Inc., priority 2004, published 2007).

Consider `N[C@@H](CCC(=O)O)C(=O)N1CCC[C@H]1B(O)O` [Glu-boroPro], for which the “Stimulation of G-CSF levels in culture supernatants (stimulation index)” value is “did not appear to stimulate increased levels of G-CSF”.
